This passage reports Specificity and Sensitivity results from US6818219B1, “Reagent for detecting and monitoring viral infections” (Institut Pasteur de Lille, priority 1997, dated 2004).

Assay type in all cases: binding
The test system of data set [1] is anti-VCA human IgG-A-Ms. Put plainly: ELISA with antigen in solid phase, human sera, anti-human IgG-A-M conjugate. The conditions noted are these: Ig(G-A-M); for Specificity: 28 EBV-negative sera.
Data set [2] has as its system anti-VCA human IgAs. Put plainly: Isotype-specific ELISA with antigen in solid phase, anti-human IgA conjugate. The conditions noted are these: for Specificity: 28 EBV-negative sera; for Sensitivity: 40 sera of primary-infected patients (P). Background: ELISA stands for enzyme-linked immunosorbent assay.
The subject of data set [3] is anti-VCA human IgGs. Put plainly: Isotype-specific ELISA with antigen in solid phase, anti-human IgG conjugate. The conditions noted are these: for Specificity: 28 EBV-negative sera; for Sensitivity: 40 sera of primary-infected patients (P).

“And” between values parts separate entries of the source, which are not always exact repeats. Equal values may be shown once.

With “CAVDTGSGGGGQPHDTAPRGARKKQ [VCAp18/SEQ ID No. 2]”, the Specificity in data set [1] (coating 0.1 μg/well) was 100%; in data set [1] (coating 1 μg/well), 89% and 78%; in data set [1] (coating 1 μg/well, listed as SEQ ID No. 2), 89%; in data set [2] (coating 0.1 μg/well), 100%; in data set [2] (coating 1 μg/well) it was 100%; in data set [3] (coating 0.1 μg/well) it was 100%. The sequence further gave a Specificity in data set [3] (coating 1 μg/well) of 96%. For the same sequence, the Sensitivity in data set [1] (coating 0.1 μg/well, 40 sera of primary-infected patients (P)) is 60%; in data set [1] (coating 0.1 μg/well, 46 EBV-positive sera (L, healthy carriers)) it was 89% and 51% and 91%; in data set [1] (coating 0.1 μg/well, 46 EBV-positive sera (L, healthy carriers), listed as SEQ ID No. 2), 91%; in data set [1] (coating 1 μg/well, 40 sera of primary-infected patients (P)) it was 85%; in data set [1] (coating 1 μg/well, 46 EBV-positive sera (L, healthy carriers)), 95%; in data set [2] (coating 0.1 μg/well), 62%. For the same sequence, the Sensitivity in data set [2] (coating 1 μg/well) was determined as 72%; in data set [3] (coating 0.1 μg/well) it was 32%; in data set [3] (coating 1 μg/well), 60%.
